Anti-infective test results gathered from many reports (values: NIAID ChemDB through PubChem).

Common to all: tests in culture; organism: Aspergillus flavus; endpoint: zone

Zone: diameter of growth inhibition.

CN1C(=O)/C(=c2/[nH][nH]c(=O)/c2=C\c2ccccn2)C(=O)c2ccccc21 ; strain or isolate: ATCC 28542 ; read by: agar diffusion ; dose: 1 mg/mL ; value: 8 mm
Cc1ccc2c(c1)C1(C(=O)N2CCCCCCN2C(=O)C3(SCC(=O)N3c3c(C)n(C)n(-c4ccccc4)c3=O)c3ccccc32)c2c(C)nn(-c3ccccc3)c2Oc2c1c(C)nn2-c1ccccc1 ; strain or isolate: MTCC 277 ; read by: agar diffusion ; dose: 100 µg/mL ; value: 15 mm
O=C(CNC(=O)c1ccncc1)NN1C(=O)CSC1c1cccc([N+](=O)[O-])c1 ; read by: agar diffusion ; dose: 50 µg/mL ; value: 24.8 mm
Clc1ccc2c(c1)Sc1cccnc1N2CCCCN1c2ccc(Cl)cc2Sc2cccnc21 ; strain or isolate: MTCC 277 ; dose: 100 µg/mL ; value: 12 mm
Cc1ccc2c(c1)C1(SCC(=O)N1c1c(C)n(C)n(-c3ccccc3)c1=O)C(=O)N2CCCCCCN1C(=O)C2(c3cc(F)ccc31)c1c(C)nn(-c3ccccc3)c1Oc1c2c(C)nn1-c1ccccc1 ; strain or isolate: MTCC 277 ; read by: agar diffusion ; dose: 100 µg/mL ; value: 12 mm
Cc1ccc(/C=c2\c(=O)[nH][nH]\c2=C2/C(=O)c3ccccc3N(C)C2=O)cc1 ; strain or isolate: ATCC 28542 ; read by: agar diffusion ; dose: 1 mg/mL ; value: 5 mm
O=c1c2ccccc2c(-c2ccccc2)nn1-c1nc2[nH]c3ccc(Cl)cc3c2c2ccccc12 ; strain or isolate: MTCC-1973 ; read by: agar diffusion / visual reading ; dose: 50 µg/mL ; value: 6 mm
COc1cc(C2c3ccc4ccccc4c3Oc3nc(-c4cc5ccccc5oc4=O)[nH]c(=O)c32)ccc1O ; read by: agar diffusion / agar ; dose: 150 µg/mL ; value: 16 mm
Cc1cc(=O)n(-c2ccc(N=Nc3c(-c4c(O)c5ccccc5n(C)c4=O)[nH][nH]c3=O)cc2)n1C ; strain or isolate: ATCC 28542 ; read by: agar diffusion ; dose: 1 mg/mL ; value: 11 mm
CN(C)c1ccc(/C=C2\SC(c3ccc(N(C)C)cc3)N(NC(=O)CNC(=O)c3ccncc3)C2=O)cc1 ; read by: agar diffusion ; dose: 100 µg/mL ; value: 11.4 mm
Clc1ccc(NCc2cc3ccccc3nc2Cl)cc1Cl ; strain or isolate: MTCC 277 ; read by: agar diffusion ; dose: 200 µg/mL ; value: 18.73 mm
Clc1ccc(C2=NN(c3ccccc3)C(c3cn(-c4ccccc4)nc3-c3ccc(Br)cc3)C2)c(Cl)c1 ; dose: 500 µg/mL ; value: 1 mm
Nc1nc(COC(=O)C2(c3ccc(Cl)cc3)CC2)cs1 ; strain or isolate: NCIM No. 524 ; dose: 25 µg/mL ; value: <10 mm
COc1ccccc1/C=c1\c(=O)[nH][nH]\c1=C1/C(=O)c2ccccc2N(C)C1=O ; strain or isolate: ATCC 28542 ; read by: agar diffusion ; dose: 1 mg/mL ; value: 11 mm
Cc1nn(-c2ccccc2)c2c1C1(C(=O)N(CCCCCCN3C(=O)C4(SCC(=O)N4c4c(C)n(C)n(-c5ccccc5)c4=O)c4cc(F)ccc43)c3ccccc31)c1c(C)nn(-c3ccccc3)c1O2 ; strain or isolate: MTCC 277 ; read by: agar diffusion ; dose: 100 µg/mL ; value: 14 mm
Clc1cccc(NCc2cc3ccccc3nc2Cl)c1 ; strain or isolate: MTCC 277 ; read by: agar diffusion ; dose: 200 µg/mL ; value: 11.63 mm
Cc1nc2ccccc2n(CC(=O)NN2C(=O)CSC2c2ccc([N+](=O)[O-])cc2)c1=O ; dose: 50 µg/mL ; value: 13 mm
Fc1ccc(NCc2cc3ccccc3nc2Cl)cc1 ; strain or isolate: MTCC 277 ; read by: agar diffusion ; dose: 200 µg/mL ; value: 15.03 mm
CN(C)c1ccc(C2c3ccc4ccccc4c3Oc3nc(-c4cc5ccccc5oc4=O)[nH]c(=O)c32)cc1 ; read by: agar diffusion / agar ; dose: 150 µg/mL ; value: 16 mm
Brc1ccc(-c2nn(-c3ccccc3)cc2C2CC(c3ccc(-c4ccccc4)cc3)=NN2c2ccccc2)cc1 ; dose: 500 µg/mL ; value: 5 mm
[Cl][Cu+].[O-]c1cc2ccccc2cc1/C=N/NC(=S)N/N=C/c1cc2ccccc2cc1O ; read by: agar diffusion / agar ; dose: 2 mg/mL ; value: 0 mm
Cn1c(=O)c(-c2[nH][nH]c(=O)c2C=Nc2cccnc2)c(O)c2ccccc21 ; strain or isolate: ATCC 28542 ; read by: agar diffusion ; dose: 1 mg/mL ; value: 16 mm
Clc1nc2ccccc2cc1CNC1CCCCC1 ; strain or isolate: MTCC 277 ; read by: agar diffusion ; dose: 200 µg/mL ; value: 0 mm
Brc1ccc2c(c1)Sc1cccnc1N2CCCCN1c2ccc(Br)cc2Sc2cccnc21 ; strain or isolate: MTCC 277 ; dose: 100 µg/mL ; value: 10 mm
Cc1ccc2nc3n4c(c5ccccc5c-3c2c1)NN=C(c1ccccc1)C4 ; strain or isolate: MTCC-1973 ; read by: agar diffusion / visual reading ; dose: 12.5 µg/mL ; value: 11 mm
COc1ccc(C2SCC(=O)N2NC(=O)Cn2c(=O)c(C)nc3ccccc32)cc1 ; dose: 50 µg/mL ; value: 9 mm
Fc1ccc(NCc2cc3ccccc3nc2Cl)cc1Cl ; strain or isolate: MTCC 277 ; read by: agar diffusion ; dose: 200 µg/mL ; value: 19.66 mm
O=C(CNC(=O)c1ccncc1)NN1CSCC1=O ; read by: agar diffusion ; dose: 50 µg/mL ; value: 13 mm
Cc1nn(-c2ccccc2)c2c1C1(C(=O)N(CCCCCCN3C(=O)C4(SCC(=O)N4c4c(C)n(C)n(-c5ccccc5)c4=O)c4ccccc43)c3ccc(F)cc31)c1c(C)nn(-c3ccccc3)c1O2 ; strain or isolate: MTCC 277 ; read by: agar diffusion ; dose: 100 µg/mL ; value: 15 mm
Fc1ccc2c(c1)Sc1cccnc1N2CCCCN1c2ccc(F)cc2Sc2cccnc21 ; strain or isolate: MTCC 277 ; dose: 100 µg/mL ; value: 12 mm
COc1ccc(C2=NNc3c4ccccc4c4c5cc(C)ccc5nc-4n3C2)cc1 ; strain or isolate: MTCC-1973 ; read by: agar diffusion / visual reading ; dose: 12.5 µg/mL ; value: 8 mm
Cc1ccc2c(c1)C1(SCC(=O)N1c1c(C)n(C)n(-c3ccccc3)c1=O)C(=O)N2CCCCCCBr ; strain or isolate: MTCC 277 ; read by: agar diffusion ; dose: 100 µg/mL ; value: 0 mm
Cc1cccc(NCc2cc3ccccc3nc2Cl)c1 ; strain or isolate: MTCC 277 ; read by: agar diffusion ; dose: 200 µg/mL ; value: 10.1 mm
Cc1ccc2[nH]c3nc(-n4[nH]c(=O)c5ccccc5c4=O)c4ccccc4c3c2c1 ; strain or isolate: MTCC-1973 ; read by: agar diffusion / visual reading ; dose: 12.5 µg/mL ; value: 9 mm
Nc1nc(COC(=O)c2c(F)cccc2Cl)cs1 ; strain or isolate: NCIM No. 524 ; dose: 25 µg/mL ; value: <10 mm
Cc1ccc(C2=NNc3c4ccccc4c4c5cc(C)ccc5nc-4n3C2)cc1 ; strain or isolate: MTCC-1973 ; read by: agar diffusion / visual reading ; dose: 3.125 µg/mL ; value: 8 mm
Clc1ccc(-c2nn(-c3ccccc3)cc2C2CC(c3ccc(Cl)cc3Cl)=NN2c2ccccc2)cc1 ; dose: 1000 µg/mL ; value: 4 mm
Cn1c(=O)c(-c2[nH][nH]c(=O)c2C=Nc2ccccc2)c(O)c2ccccc21 ; strain or isolate: ATCC 28542 ; read by: agar diffusion ; dose: 1 mg/mL ; value: 11 mm
N#Cc1ccc(C(=O)OCc2csc(N)n2)cn1 ; strain or isolate: NCIM No. 524 ; dose: 25 µg/mL ; value: <10 mm
Cn1c(=O)c(-c2[nH][nH]c(=O)c2/C=N/c2cscn2)c(O)c2ccccc21 ; strain or isolate: ATCC 28542 ; read by: agar diffusion ; dose: 1 mg/mL ; value: 15 mm
O=C(CNC(=O)c1ccncc1)NN1C(=O)/C(=C/c2ccccc2Cl)SC1c1ccccc1Cl ; read by: agar diffusion ; dose: 100 µg/mL ; value: 19 mm
Cn1c(=O)c(-c2[nH][nH]c(=O)c2/C=N/c2ncccn2)c(O)c2ccccc21 ; strain or isolate: ATCC 28542 ; read by: agar diffusion ; dose: 1 mg/mL ; value: 5 mm
O=C(CNC(=O)c1ccncc1)NN1C(=O)/C(=C/c2cccc([N+](=O)[O-])c2)SC1c1cccc([N+](=O)[O-])c1 ; read by: agar diffusion ; dose: 100 µg/mL ; value: 25 mm
Cc1nc2ccccc2n(CC(=O)NN2C(=O)CSC2c2ccccc2O)c1=O ; dose: 100 µg/mL ; value: 14 mm
CN(Cc1cc2ccccc2nc1Cl)c1ccc(Cl)c(Cl)c1 ; strain or isolate: MTCC 277 ; read by: agar diffusion ; dose: 200 µg/mL ; value: 19.52 mm
O=C(CNC(=O)c1ccncc1)NN1C(=O)CSC1c1cccc(Br)c1 ; read by: agar diffusion ; dose: 100 µg/mL ; value: 18 mm
O=C(O)c1ccccc1C(=O)NNc1nc2[nH]c3ccc(Cl)cc3c2c2ccccc12 ; strain or isolate: MTCC-1973 ; read by: agar diffusion / visual reading ; dose: 6.25 µg/mL ; value: 7 mm
Cc1nc2ccccc2n(CC(=O)NN2C(=O)CSC2c2ccc(C(F)(F)F)cc2)c1=O ; dose: 50 µg/mL ; value: 14 mm
Cc1ccc2c(c1)C1(SCC(=O)N1c1c(C)n(C)n(-c3ccccc3)c1=O)C(=O)N2CCCCCCN1C(=O)C2(c3ccccc31)c1c(C)nn(-c3ccccc3)c1Oc1c2c(C)nn1-c1ccccc1 ; strain or isolate: MTCC 277 ; read by: agar diffusion ; dose: 100 µg/mL ; value: 12 mm
O=c1[nH]c(-c2cc3ccccc3oc2=O)nc2c1C(c1ccc(Cl)cc1)c1ccc3ccccc3c1O2 ; read by: agar diffusion / agar ; dose: 100 µg/mL ; value: 11 mm
Brc1ccc2c(c1)Sc1cccnc1N2CCCCCCN1c2ccc(Br)cc2Sc2cccnc21 ; strain or isolate: MTCC 277 ; dose: 100 µg/mL ; value: 12 mm
Cc1ccc2[nH]c3nc(NNC(=O)c4ccccc4C(=O)O)c4ccccc4c3c2c1 ; strain or isolate: MTCC-1973 ; read by: agar diffusion / visual reading ; dose: 3.125 µg/mL ; value: 13 mm
CC(=Nc1cccc2cccc(N=C(C)c3c(O)ccc4c(C)cc(=O)oc34)c12)c1c(O)ccc2c(C)cc(=O)oc12 ; strain or isolate: MTCC 1883 ; dose: 500 µg/mL ; value: 24 mm
COc1ccc(C2=NNc3c4ccccc4c4c5cc(Cl)ccc5nc-4n3C2)cc1 ; strain or isolate: MTCC-1973 ; read by: agar diffusion / visual reading ; dose: 12.5 µg/mL ; value: 8 mm
C(=C\CN1c2ccccc2Sc2cccnc21)/CN1c2ccccc2Sc2cccnc21 ; strain or isolate: MTCC 277 ; dose: 100 µg/mL ; value: 12 mm
Clc1ccc(-c2nn(-c3ccccc3)cc2C2CC(c3ccc(-c4ccccc4)cc3)=NN2c2ccccc2)cc1 ; dose: 1000 µg/mL ; value: 5 mm

6 of the rows above, restated:

compound | strain or isolate | read by | dose | value
[Cl][Cu+].[O-]c1cc2ccccc2cc1/C=N/NC(=S)N/N=C/c1cc2ccccc2cc1O | - | agar diffusion / agar | 2 mg/mL | 0 mm
CN(C)c1ccc(/C=C2\SC(c3ccc(N(C)C)cc3)N(NC(=O)CNC(=O)c3ccncc3)C2=O)cc1 | - | agar diffusion | 100 µg/mL | 11.4 mm
COc1ccc(C2=NNc3c4ccccc4c4c5cc(C)ccc5nc-4n3C2)cc1 | MTCC-1973 | agar diffusion / visual reading | 12.5 µg/mL | 8 mm
O=c1c2ccccc2c(-c2ccccc2)nn1-c1nc2[nH]c3ccc(Cl)cc3c2c2ccccc12 | MTCC-1973 | agar diffusion / visual reading | 50 µg/mL | 6 mm
Cc1nc2ccccc2n(CC(=O)NN2C(=O)CSC2c2ccc(C(F)(F)F)cc2)c1=O | - | - | 50 µg/mL | 14 mm
O=C(O)c1ccccc1C(=O)NNc1nc2[nH]c3ccc(Cl)cc3c2c2ccccc12 | MTCC-1973 | agar diffusion / visual reading | 6.25 µg/mL | 7 mm

Blank or dashed fields: not listed here. Neighbouring rows are from separate reports.